PubChem BioAssay AID504761, Drosophila RNAi Screening Center – 2011

- Screen: 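Insect host genes that dengue virus relies on to spread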 (primary screen)
- System: D.Mel-2 cells from Drosophila
- Reagents: long dsRNA against Drosophila genes
- Challenge: infection with dengue virus type 2; dose and infection time not stated
- Measurement: 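Per well on two replicate plates, imaging gave the percent of cells positive for viral envelope protein, ranked by infection, and a nuclear count of cells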
- Reading the numbers: infection score: higher = more virus-infected cells; cell count: higher = more cells in the well
- Rule for the call: 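Low infection ranks in the two replicates (chance level up to 0.065) followed by a retest with a 1.5-fold or larger significant decrease, p below 0.05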
- Meaning of the calls: active = confirmed: knock-down lowers infection; inactive = not picked or not confirmed
The screen tested about 22,000 reagents; below is an unselected part of those that have a named target and a result. Of all reagents, 116 (0.52%) are marked active. 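Calls depend on retest data that are not deposited; infection was ranked per plate without normalising between plates; the unit of the infection score is not given.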 Raw values vary from plate to plate and are shown uncorrected. A number with no mark means an inactive call. Reagents against one gene are numbered here. A plus sign joins genes that one reagent is predicted to hit. Not stated in the record: the amount of reagent, the time to read-out.

target,dsRNA no.,"infection score, replicate 1","infection score, replicate 2","cell count, replicate 1","cell count, replicate 2"
l(2)dtl (GeneID 46326),1,23.2,19.2,5834,5732
l(2)dtl (GeneID 46326),2,5.54,1.46,5830,6220
CG17237 (GeneID 33411),1,1.16,1.61,6390,6630
Rab39 (GeneID 31684),1,32.8,17.5,5297,3878
Ndae1 (GeneID 34005),1,1.79,0.05,6267,6321
Ndae1 (GeneID 34005),2,4.17,13.1,6156,5437
Cenp-C (GeneID 41014),1,10.7,12.6,2923,4045
Cenp-C (GeneID 41014),2,5.32,14.2,6162,5907
Gmer (GeneID 37638),1,15.2,17.4,5875,6303
Gmer (GeneID 37638),2,15.3,5.74,5248,1447
inaF-B (GeneID 8674114),1,2.66,6.87,6621,6633
CG9426 (GeneID 34719),1,4.22,1.95,5920,6306
CG2291 (GeneID 35804),1,5.7,13.3,6685,3235
Sce (GeneID 43327),1,2.39,5.93,4266,6481
Myt1 (GeneID 38649),1,3.78,7.72,6371,5724
Myt1 (GeneID 38649),2,2.15,1.96,6739,6321
gnu (GeneID 39615),1,9.56,10.4,6341,6816
CG6873 (GeneID 32861),1,0.22,0.63,5858,5702
PGAP1 (GeneID 31487),1,1.42,21.2,6284,6179
PGAP1 (GeneID 31487),2,2.89,9.1,1524,6516
AANATL2 (GeneID 33874),1,0.33,2.97,613,6065
AANATL2 (GeneID 33874),2,3.48,5.63,6069,5682
CG32196 (GeneID 317908),1,6.86,5.68,6081,5807
Pal2 (GeneID 37746),1,6.74,7.32,6630,6517
nAChRbeta3 (GeneID 33228),1,3.04,1.22,6191,6537
IFT20 + CG10395,1,8.71,1.06,6438,6627
IFT20 + CG10395,2,4.37,11.2,6454,6626
CG31544 (retired record) (GeneID 318792),1,3.19,4.44,5991,5817
lectin-28C (GeneID 53542),1,5.73,8.16,6143,6614
lectin-28C (GeneID 53542),2,12,8.53,6117,6825
CG42375 + CG9288,1,12.2,17.8,6496,6149
CG6937 + btn,1,,,296,272
Mbs (GeneID 49070),1,2.45,2.58,5644,5163
Mbs (GeneID 49070),2,7.84,25.7,6023,6287
Mbs (GeneID 49070),3,1.74,1.02,6424,6873
Mbs (GeneID 49070),4,10.5,6.09,6059,5633
CG14014 (GeneID 33784),1,2.54,3.07,6531,6459
Ret (GeneID 43875),1,15.7,14.6,6559,5373
Ret (GeneID 43875),2,0.24,0.15,829,687
Acat2 (GeneID 38147),1,3.62,5.25,5968,5754
CG5346 (GeneID 42653),1,0.2,5.54,503,6573
CG5346 (GeneID 42653),2,7.57,2.73,5747,5638
CG32437 (GeneID 40366),1,12.2,2.52,6316,5592
CG32437 (GeneID 40366),2,3.44,14,7068,6731
CG32437 (GeneID 40366),3,6.13,18.1,6883,6899
ghi (GeneID 317833),1,5.75,2.35,5995,6439
olf186-M (GeneID 37039),1,6.27,11.1,7076,6604
Adgf-A2 (GeneID 64879),1,0.17 (active),0.13,6509,6351
CG15547 (GeneID 43661),1,2.54,0.73,6060,7004
CG15547 (GeneID 43661),2,13.5,15.9,2434,2678
Aef1 (GeneID 40370),1,9.09,7.78,5711,5863
Incenp (GeneID 35649),1,2.84 (active),4.06,6613,6261
Incenp (GeneID 35649),2,6.19,1.68,3847,3641
Incenp (GeneID 35649),3,3.7,32.8,1459,1026
CG7509 (GeneID 38579),1,7.97,8.49,6773,6728
Drl-2 (GeneID 36436),1,4.42,2.11,6245,6015
Drl-2 (GeneID 36436),2,3.6,3.59,6300,6514
Drl-2 (GeneID 36436),3,14.3,5.82,6781,6170
